This is an account of results in article PMC6669600 (Viruses, 2019).

Where two headings read alike, the source gives them in different places.

Assay [1] deals with N36 (gp41 NHR-derived target mimic peptide) (Human immunodeficiency virus type 1 group M subtype B, UniProt P04578). As to the kind of experiment: CD spectroscopy of inhibitor complexed with N36. Particulars: thermal denaturation of complex at 222 nm, 20-98 C, 2 C/min, each peptide 10 μM in PBS; repeated two times, representative data. In kind it is binding, HIV-1.
Assay [2] relates to HIV-1HXB2 Env-mediated cell-cell fusion. It counts as cell-based. Particulars: TZM-bl target, HL2/3 effector, 6 h coculture at 37 C, luciferase, triplicate, repeated three times, mean ± SD, read-out: IC50, inhibition of HIV-1HXB2 Env-mediated cell-cell fusion.

As for `CC[C@H](C)[C@H](NC(=O)[C@H](CC(C)C)NC(=O)[C@H](CCC(=O)O)NC(=O)[C@H](CCC(=O)O)NC(=O)[C@@H](NC(=O)[C@H](CCCCN)NC(=O)[C@H](CCCCN)NC(=O)[C@@H](NC(=O)[C@H](Cc1ccc(O)cc1)NC(=O)[C@H](CCC(=O)O)NC(=O)[C@H](CCC(=O)O)NC(=O)[C@@H](NC(=O)[C@H](CCCCN)NC(=O)[C@H](CCCCN)NC(=O)[C@H](CC(=O)O)NC(=O)[C@H](Cc1c[nH]c2ccccc12)NC(=O)[C@H](CCC(=O)O)NC(=O)[C@H](CCC(=O)O)NC(=O)[C@H](Cc1c[nH]c2ccccc12)NC(=O)[C@@H](NC(=O)[C@H](CCSC)NC(C)=O)[C@@H](C)O)[C@@H](C)CC)[C@@H](C)O)[C@@H](C)CC)C(=O)N[C@@H](CCCCN)C(=O)N[C@@H](CCCCN)C(=O)N[C@@H](CO)C(=O)N[C@@H](CCC(=O)O)C(=O)N[C@@H](CCC(=O)O)C(=O)N[C@@H](CCC(N)=O)C(=O)N[C@@H](CCC(N)=O)C(=O)N[C@@H](CCCCN)C(=O)N[C@@H](CCCCN)C(=O)N[C@@H](CC(N)=O)C(=O)N[C@@H](CCC(=O)O)C(=O)N[C@@H](CCCCN)C(=O)N[C@@H](CCC(=O)O)C(N)=O` [MT-SC32EK], the “CD data (with N36) Tm (°C)” value in assay [1] stood at 78.6 °C. Besides, in assay [2] (SD), the IC50 was determined as 1.1 ± 0.3 nM.

For the compound `CC[C@H](C)[C@H](NC(=O)[C@H](CC(C)C)NC(=O)[C@H](CCC(=O)O)NC(=O)[C@H](CCC(=O)O)NC(=O)[C@@H](NC(=O)[C@H](CCCCN)NC(=O)[C@H](CCCCN)NC(=O)[C@@H](NC(=O)[C@H](Cc1ccc(O)cc1)NC(=O)[C@H](CCC(=O)O)NC(=O)[C@H](CCC(=O)O)NC(=O)[C@@H](NC(=O)[C@H](CCCCN)NC(=O)[C@H](CCCCN)NC(=O)[C@H](CC(=O)O)NC(=O)[C@H](Cc1c[nH]c2ccccc12)NC(=O)[C@H](CCC(=O)O)NC(=O)[C@H](CCC(=O)O)NC(=O)[C@H](Cc1c[nH]c2ccccc12)NC(C)=O)[C@@H](C)CC)[C@@H](C)O)[C@@H](C)CC)C(=O)N[C@@H](CCCCN)C(=O)N[C@@H](CCCCN)C(N)=O` [SC21EK], the “CD data (with N36) Tm (°C)” value in assay [1] was 56.9 °C. Besides, the IC50 in assay [2] (SD) was determined as 105 ± 12.8 nM.

As to `CC[C@H](C)[C@H](NC(=O)[C@H](CC(C)C)NC(=O)[C@H](CCC(=O)O)NC(=O)[C@H](CCC(=O)O)NC(=O)[C@@H](NC(=O)[C@H](CCCCN)NC(=O)[C@H](CCCCN)NC(=O)[C@@H](NC(=O)[C@H](Cc1ccc(O)cc1)NC(=O)[C@H](CCC(=O)O)NC(=O)[C@H](CCC(=O)O)NC(=O)[C@@H](NC(=O)[C@H](CCCCN)NC(=O)[C@H](CCCCN)NC(=O)[C@H](CC(=O)O)NC(=O)[C@H](Cc1c[nH]c2ccccc12)NC(=O)[C@H](CCC(=O)O)NC(=O)[C@H](CCC(=O)O)NC(=O)[C@H](Cc1c[nH]c2ccccc12)NC(=O)[C@@H](NC(=O)[C@H](CCSC)NC(C)=O)[C@@H](C)O)[C@@H](C)CC)[C@@H](C)O)[C@@H](C)CC)C(N)=O` [MT-SC19EK], in assay [1], the “CD data (with N36) Tm (°C)” value was 67.7 °C. The IC50 in assay [2] (SD) amounted to 4.9 ± 1.5 nM.

For the compound `CC[C@H](C)[C@H](NC(=O)[C@H](CC(C)C)NC(=O)[C@H](CCC(=O)O)NC(=O)[C@H](CCC(=O)O)NC(=O)[C@@H](NC(=O)[C@H](CCCCN)NC(=O)[C@H](CCCCN)NC(=O)[C@@H](NC(=O)[C@H](Cc1ccc(O)cc1)NC(=O)[C@H](CCC(=O)O)NC(=O)[C@H](CCC(=O)O)NC(=O)[C@@H](NC(=O)[C@H](CCCCN)NC(=O)[C@H](CCCCN)NC(=O)[C@H](CC(=O)O)NC(=O)[C@H](Cc1c[nH]c2ccccc12)NC(=O)[C@H](CCC(=O)O)NC(=O)[C@H](CCC(=O)O)NC(=O)[C@H](Cc1c[nH]c2ccccc12)NC(=O)[C@@H](NC(=O)[C@H](CCSC)NC(C)=O)[C@@H](C)O)[C@@H](C)CC)[C@@H](C)O)[C@@H](C)CC)C(=O)N[C@@H](CCCCN)C(=O)N[C@@H](CCCCN)C(=O)N[C@@H](CO)C(N)=O` [MT-SC22EK], in assay [1], the “CD data (with N36) Tm (°C)” value is 71.1 °C. Moreover, the half-inhibitory concentration (IC50) in assay [2] (SD) is 2.2 ± 0.9 nM.

`CC[C@H](C)[C@H](NC(=O)[C@H](CCCCN)NC(=O)[C@H](CCCCN)NC(=O)[C@H](CC(=O)O)NC(=O)[C@H](Cc1c[nH]c2ccccc12)NC(=O)[C@H](CCC(=O)O)NC(=O)[C@H](CCC(=O)O)NC(=O)[C@H](Cc1c[nH]c2ccccc12)NC(=O)[C@@H](NC(=O)[C@H](CCSC)NC(C)=O)[C@@H](C)O)C(=O)N[C@@H](CCC(=O)O)C(=O)N[C@@H](CCC(=O)O)C(=O)N[C@@H](Cc1ccc(O)cc1)C(=O)N[C@H](C(=O)N[C@@H](CCCCN)C(=O)N[C@@H](CCCCN)C(=O)N[C@H](C(=O)N[C@@H](CCC(=O)O)C(=O)N[C@@H](CCC(=O)O)C(=O)N[C@@H](CC(C)C)C(N)=O)[C@@H](C)CC)[C@@H](C)O` [MT-SC18EK]: the “CD data (with N36) Tm (°C)” value in assay [1] was 51.6 °C. For the same compound, in assay [2], the IC50 is greater than 2000 nM.

For the compound `CC[C@H](C)[C@H](NC(=O)[C@H](CC(C)C)NC(=O)[C@H](CCC(=O)O)NC(=O)[C@H](CCC(=O)O)NC(=O)[C@@H](NC(=O)[C@H](CCCCN)NC(=O)[C@H](CCCCN)NC(=O)[C@@H](NC(=O)[C@H](Cc1ccc(O)cc1)NC(=O)[C@H](CCC(=O)O)NC(=O)[C@H](CCC(=O)O)NC(=O)[C@@H](NC(=O)[C@H](CCCCN)NC(=O)[C@H](CCCCN)NC(=O)[C@H](CC(=O)O)NC(=O)[C@H](Cc1c[nH]c2ccccc12)NC(=O)[C@H](CCC(=O)O)NC(=O)[C@H](CCC(=O)O)NC(=O)[C@H](Cc1c[nH]c2ccccc12)NC(=O)[C@@H](NC(=O)[C@H](CCSC)NC(C)=O)[C@@H](C)O)[C@@H](C)CC)[C@@H](C)O)[C@@H](C)CC)C(=O)N[C@@H](CCCCN)C(=O)N[C@@H](CCCCN)C(=O)N[C@@H](CO)C(=O)N[C@@H](CCC(=O)O)C(=O)N[C@@H](CCC(=O)O)C(=O)N[C@@H](CCC(N)=O)C(=O)N[C@@H](CCC(N)=O)C(=O)N[C@@H](CCCCN)C(=O)N[C@@H](CCCCN)C(=O)N[C@@H](CC(N)=O)C(=O)N[C@@H](CCC(=O)O)C(=O)N[C@@H](CCCCN)C(=O)N[C@@H](CCC(=O)O)C(=O)N[C@@H](CC(C)C)C(N)=O` [MT-SC33EK], the “CD data (with N36) Tm (°C)” value in assay [1] was 84.9 °C. Besides, the IC50 in assay [2] (SD) is 0.8 ± 0.2 nM.

As for `CC[C@H](C)[C@H](NC(=O)[C@H](CC(C)C)NC(=O)[C@H](CCC(=O)O)NC(=O)[C@H](CCC(=O)O)NC(=O)[C@@H](NC(=O)[C@H](CCCCN)NC(=O)[C@H](CCCCN)NC(=O)[C@@H](NC(=O)[C@H](Cc1ccc(O)cc1)NC(=O)[C@H](CCC(=O)O)NC(=O)[C@H](CCC(=O)O)NC(=O)[C@@H](NC(=O)[C@H](CCCCN)NC(=O)[C@H](CCCNC(=N)N)NC(=O)[C@H](CC(=O)O)NC(=O)[C@H](Cc1c[nH]c2ccccc12)NC(=O)[C@H](CCC(=O)O)NC(=O)[C@H](CCC(=O)O)NC(=O)[C@H](Cc1c[nH]c2ccccc12)NC(=O)[C@@H](NC(=O)[C@H](CCSC)NC(C)=O)[C@@H](C)O)[C@@H](C)CC)[C@@H](C)O)[C@@H](C)CC)C(=O)N[C@@H](CCCCN)C(=O)N[C@@H](CCCCN)C(=O)N[C@@H](CO)C(=O)N[C@@H](CCC(N)=O)C(=O)N[C@@H](CC(N)=O)C(=O)N[C@@H](CCC(N)=O)C(=O)N[C@@H](CCC(N)=O)C(=O)N[C@@H](CCC(=O)O)C(=O)N[C@@H](CCCCN)C(=O)N[C@@H](CC(N)=O)C(N)=O` [MT-WQ-EKN], the “CD data (with N36) Tm (°C)” value in assay [1] was determined as 74.3 °C. Moreover, the IC50 in assay [2] (SD) worked out at 0.8 ± 0.1 nM.

`CC[C@H](C)[C@H](NC(=O)[C@H](CC(C)C)NC(=O)[C@H](CCC(=O)O)NC(=O)[C@H](CCC(=O)O)NC(=O)[C@@H](NC(=O)[C@H](CCCCN)NC(=O)[C@H](CCCCN)NC(=O)[C@@H](NC(=O)[C@H](Cc1ccc(O)cc1)NC(=O)[C@H](CCC(=O)O)NC(=O)[C@H](CCC(=O)O)NC(=O)[C@@H](NC(=O)[C@H](CCCCN)NC(=O)[C@H](CCCCN)NC(=O)[C@H](CC(=O)O)NC(=O)[C@H](Cc1c[nH]c2ccccc12)NC(=O)[C@H](CCC(=O)O)NC(=O)[C@H](CCC(=O)O)NC(=O)[C@H](Cc1c[nH]c2ccccc12)NC(=O)[C@@H](NC(=O)[C@H](CCSC)NC(C)=O)[C@@H](C)O)[C@@H](C)CC)[C@@H](C)O)[C@@H](C)CC)C(=O)N[C@@H](CCCCN)C(=O)N[C@@H](CCCCN)C(=O)N[C@@H](CO)C(=O)N[C@@H](CCC(=O)O)C(=O)N[C@@H](CCC(=O)O)C(=O)N[C@@H](CCC(N)=O)C(=O)N[C@@H](CCC(N)=O)C(=O)N[C@@H](CCCCN)C(=O)N[C@@H](CCCCN)C(N)=O` [MT-SC28EK]: the “CD data (with N36) Tm (°C)” value in assay [1] was 69.1 °C. Further, the IC50 in assay [2] (SD) came out at 1.2 ± 0.6 nM.

With `CC[C@H](C)[C@H](NC(=O)[C@H](CC(C)C)NC(=O)[C@H](CCC(=O)O)NC(=O)[C@H](CCC(=O)O)NC(=O)[C@@H](NC(=O)[C@H](CCCCN)NC(=O)[C@H](CCCCN)NC(=O)[C@@H](NC(=O)[C@H](Cc1ccc(O)cc1)NC(=O)[C@H](CCC(=O)O)NC(=O)[C@H](CCC(=O)O)NC(=O)[C@@H](NC(=O)[C@H](CCCCN)NC(=O)[C@H](CCCCN)NC(=O)[C@H](CC(=O)O)NC(=O)[C@H](Cc1c[nH]c2ccccc12)NC(=O)[C@H](CCC(=O)O)NC(=O)[C@H](CCC(=O)O)NC(=O)[C@H](Cc1c[nH]c2ccccc12)NC(=O)[C@@H](NC(=O)[C@H](CCSC)NC(C)=O)[C@@H](C)O)[C@@H](C)CC)[C@@H](C)O)[C@@H](C)CC)C(=O)N[C@@H](CCCCN)C(=O)N[C@@H](CCCCN)C(=O)N[C@@H](CO)C(=O)N[C@@H](CCC(=O)O)C(=O)N[C@@H](CCC(=O)O)C(=O)N[C@@H](CCC(N)=O)C(=O)N[C@@H](CCC(N)=O)C(=O)N[C@@H](CCCCN)C(=O)N[C@@H](CCCCN)C(=O)N[C@@H](CC(N)=O)C(=O)N[C@@H](CCC(=O)O)C(=O)N[C@@H](CCCCN)C(=O)N[C@@H](CCC(=O)O)C(=O)N[C@@H](CC(C)C)C(=O)N[C@@H](CCCCN)C(N)=O` [MT-SC34EK], in assay [1], the “CD data (with N36) Tm (°C)” value worked out at 83 °C. In addition, the IC50 in assay [2] (SD) came to 0.7 ± 0.2 nM.
